Target: trypsin activated wild-type recombinant epsilon toxin (Clostridium perfringens Type D strain NCTC 8346)
Test: cell-based or functional assay

control sera from lambs which had not been immunised (antibody)
Neutralising antibody (IU/ml) measured using CHO-hMal cells: 0 IU/ml

From US20200405836A1
